Compound potency records, mixed from different reports. Data source: NIAID ChemDB in PubChem.

Common to all: tests in culture; agent: Mycobacterium tuberculosis

MIC bound: limit read from a one-dose screen. Inhibition is in % at the dose shown (toxicity tests: loss of growth or viability). Blank or dashed fields: not listed here. A number after MIC or MFC names an inhibition level or a share of isolates. Rows are shuffled and stem from different studies. Two numbers with a dash give a range or band. ECn: concentration that inhibits the pathogen or its effect by n%.

SMILES	read by	strain	setting	dose	read-out	value
NC(=O)c1ccc[n+](C2OC(COP(=O)([O-])OP(=O)([O-])OCC3OC(n4cnc5c(=O)[nH]c(N)nc54)C(O)C3O)C(O)C2O)c1.[Li+]	BACTEC	H37Rv		12.5 µg/mL	inhibition	7%
O=c1c(O)c(-c2ccc(O)c(O)c2)oc2cc(O)cc(O)c12	BACTEC	H37Rv			MIC	50 µg/mL
CC1COc2c(N3CCN(C)CC3)c(F)cc3c(=O)c(C(=O)O)cn1c23	resazurin	Clinical isolate unspecified	clinical isolate		MIC	0.5 µM
COc1ccc(-c2cn3nc(S(N)(=O)=O)sc3n2)cc1		H37Rv			MIC	>6.25 µg/mL
O=C(CC1Sc2ccccc2NC1=O)NNc1ccc(Cl)cc1Cl	BACTEC	H37Rv		12.5 µg/mL	inhibition	44%
O=C(/C=C/c1ccccn1)c1ccccn1		H37Rv			MIC	>12.5 µg/mL
Cn1cnc2c(NS(=O)(=O)c3ccc(F)cc3)nc(Cl)cc21	visual reading	H37Rv			MIC99	12.5 µM
C[C@]1(COc2ccc(N3CCC(Oc4ccc(OC(F)(F)F)cc4)CC3)cc2)Cn2cc([N+](=O)[O-])nc2O1		56 strains (EMB-susceptible)			MIC90	0.012 µg/mL
CCCN1CCN(c2cc(=O)c3nc4c(oc3c2)c2c(=O)c3c(O)c(C)c5c(c34)=C(O)[C@@](C)(O/C=C/[C@H](OC)[C@@H](C)[C@@H](OC(C)=O)[C@H](C)[C@H](O)[C@H](C)[C@@H](O)[C@@H](C)/C=C/C=C(/C)C(=O)N2)O5)CC1		16 strains (rifampicin-susceptible)			MIC90	1.56 µg/mL
O=C(Nc1ccc(O)c2c1C(=O)c1ccccc1C2=O)Oc1ccccc1	BACTEC	H37Rv		12.5 µg/mL	inhibition	10%
N#Cc1ccc(Nc2nc(Oc3cccc4cccnc34)nc(N3CCOCC3)n2)cc1C(F)(F)F	agar	H37Rv			MIC98	100 µg/mL
CN1N=Nc2ccccc2NC1=O	BACTEC	H37Rv		12.5 µg/mL	inhibition	0%
COc1cnc2ccc(=O)n(CCN3CCC(NCc4cc(Cl)c(Cl)cn4)CC3)c2c1	resazurin	CDC1551			MIC	0.04 µg/mL
CC[C@@H](C)N1CCN(c2cc(=O)c3nc4c(oc3c2)c2c(=O)c3c(O)c(C)c5c(c34)=C(O)[C@@](C)(O/C=C/[C@H](OC)[C@@H](C)[C@@H](OC(C)=O)[C@H](C)[C@H](O)[C@H](C)[C@@H](O)[C@@H](C)/C=C/C=C(/C)C(=O)N2)O5)CC1		6 strains (rifampicin-resistant)			MIC90	0.025 µg/mL
CC1=C(C(=O)Nc2ccc(Cl)c(C(=O)OC(C)C)c2)SCCO1	BACTEC	H37Rv			MIC bound	>12.5 µg/mL
O=c1cc(-c2ccccc2)oc2cc(O)c(O)c(O)c12	BACTEC	H37Rv			MIC	50 µg/mL
CC1COc2c(N3CCN(C)CC3)c(F)cc3c(=O)c(C(=O)O)cn1c23		5 strains (ofloxacin-susceptible)			MIC	0.63–1.25 µg/mL
CN(C)C(=S)SSC(C)(C)C	BACTEC	H37Rv			MIC	8 µg/mL
CC(C)(C)c1ccc(Cn2cnc([N+](=O)[O-])n2)cc1	turbidity	H37Rv		0.488 µM	inhibition	90%
CCOC(=O)Cc1cc(C2CCCCC2)nc2ccccc12		H37Rv			MIC	>6.25 µg/mL
CC(=O)NC[C@H]1CN(c2ccc(N3CCN(Cc4ccc([N+](=O)[O-])o4)CC3)c(F)c2)C(=O)O1		59 isolates			MIC90	8 µg/mL
N#Cc1ccc(Nc2nc(Oc3cccc4cccnc34)nc(N3CCN(c4ncccn4)CC3)n2)cc1C(F)(F)F	agar	H37Rv			MIC96	200 µg/mL
O=C1CCCCCCCCCCCCCCCO1	BACTEC	H37Rv			MIC	4 µg/mL
COc1nc2ccc(Br)cc2cc1[C@@H](c1ccccc1)[C@@](O)(CCN(C)C)c1cccc2ccccc12	resazurin	clinical isolate MAL010084			MIC90	0.03125 µg/mL
Cn1cnc2c(NC(=O)c3ccc(C#N)cc3)nc(Cl)cc21	visual reading	H37Rv			MIC99	25 µM
O=c1cc(-c2ccccc2)oc2ccc(-c3ccccc3-c3cc(=O)c4ccccc4o3)cc12		H37Rv			EC50	>12.5 µg/mL
COc1cccc(N=Nc2c(C)nn(C(=S)S)c2C)c1	BACTEC	H37Rv		12.5 µg/mL	inhibition	50%
FC(F)(F)c1nn2cc(-c3ccco3)nc2s1		H37Rv			MIC	20 µg/mL
CC(CNC(=O)C12CC3CC(CC(C3)C1)C2)NC(=O)C12CC3CC(CC(C3)C1)C2	resazurin	H37Rv			MIC bound	>6.25 µg/mL
CCN(C(=O)COc1cc2c(O)c3c(O)c(C)c4c(c13)C(=O)[C@@](C)(O/C=C/[C@H](OC)[C@@H](C)[C@@H](OC(C)=O)[C@H](C)[C@H](O)[C@H](C)[C@@H](O)[C@@H](C)/C=C/C=C(/C)C(=O)N2)O4)N1CCCCC1					EC50	0.045 µg/mL
CO[C@H]1O[C@@H](Oc2cc(O)c3c(=O)cc(-c4ccc(O)cc4)oc3c2)[C@H](O)[C@@H](O)[C@@H]1O	BACTEC	H37Rv			MIC	>100 µM
N#Cc1ccc(Nc2nc(Oc3cccc4cccnc34)nc(N3CCN(c4ccccc4)CC3)n2)cc1C(F)(F)F	BACTEC	H37Rv			MIC	>6.25 µg/mL
CC1S(=O)(=O)OCCCOS1(=O)=O	BACTEC	H37Rv		12.5 µg/mL	inhibition	25%
Cc1cccc(C(=O)Nc2nc(Cl)cc3c2ncn3C)c1	visual reading	H37Rv			MIC99	>25 µM
C[C@@H]1O[C@@H](OC[C@H]2O[C@@H](Oc3c(-c4ccc(O)c(O)c4)oc4cc(O)cc(O)c4c3=O)[C@H](O)[C@@H](O)[C@@H]2O)[C@H](O)[C@H](O)[C@H]1O	BACTEC	H37Rv			MIC	>100 µg/mL
CCN(CC)c1ccc2cc3ccc(=[N+](CC)CC)cc-3oc2c1.CCN(CC)c1ccc2cc3ccc(=[N+](CC)CC)cc-3oc2c1.[Cl-].[Cl-].[Cl-].[Cl-].[Cl][Fe+][Cl].[Cl][Fe+][Cl]	BACTEC	H37Rv		12.5 µg/mL	inhibition	31%
O=c1c(O)c(-c2ccccc2)oc2cc(O)cc(O)c12	BACTEC	H37Rv			MIC	>100 µg/mL
Cc1c[nH]c(C(=O)O)c1-c1ccc2c(-c3ccccc3)nc3ccccc3n12		H37Rv			EC50	>12.5 µg/mL
COc1ccc(-c2cn3nc(C(F)(F)F)sc3n2)cc1		H37Rv		6.25 µg/mL	inhibition	31%
O=c1cc(-c2ccccc2)oc2cc(O)cc(O)c12	BACTEC	H37Rv			MIC	>100 µg/mL
NC(=O)c1csc([C@@H]2O[C@H](COP(=O)(O)CP(=O)(O)OC[C@H]3O[C@@H](n4cnc5c(N)ncnc54)[C@H](O)[C@@H]3O)[C@@H](O)[C@H]2O)n1	BACTEC	H37Rv			MIC bound	>12.5 µg/mL
CCOc1cc(O)c(C(=O)/C=C/c2ccccc2)c(OCC)c1		H37Rv			EC50	>12.5 µg/mL
O=C(/C=C/c1ccccc1)c1cc(Br)ccc1O		H37Rv			MIC	>12.5 µg/mL
CO[C@H]1/C=C/O[C@@]2(C)Oc3c(C)c(O)c4c(O)c(c5c(c4c3C2=O)NC2(CCN(CC(C)C)CC2)N=5)=NC(=O)/C(C)=C\C=C\[C@H](C)[C@H](O)[C@@H](C)[C@@H](O)[C@@H](C)[C@H](OC(C)=O)[C@@H]1C		Strain 3 (INH-resistant)			MIC	0.006 µg/mL
Cc1cc(C2CCCC2)nc2c(C3CCCC3)cccc12		H37Rv			MIC	6.25 µg/mL
N#Cc1ccc(Nc2nc(Oc3cccc4cccnc34)nc(N3CCN(Cc4ccccc4)CC3)n2)cc1C(F)(F)F	BACTEC	H37Rv			MIC	>6.25 µg/mL
O=C(/C=C/c1ccccc1)c1cccc(Br)c1O		H37Rv			MIC	>12.5 µg/mL
COc1ccc(C(=O)/C=C/c2ccco2)c(O)c1					EC50	>12.5 µg/mL
COC(=O)c1cc(C2C3CC4CC(C3)CC2C4)c2ccccc2n1		H37Rv			MIC	>6.25 µg/mL
COc1ccc(CN2CCN(c3nc(Nc4ccc(C#N)c(C(F)(F)F)c4)nc(Oc4cccc5cccnc45)n3)CC2)c(OC)c1OC	agar	H37Rv			MIC99	12.5 µg/mL
NC(=O)c1cnccn1		Isolate K10447			MIC	>500 µg/mL
O=C(/C=C/c1ccccc1)c1ccco1					EC50	<12.5 µg/mL
N#CSc1c(-c2ccc(Cl)cc2)nc2sc(S(N)(=O)=O)nn12		H37Rv		6.25 µg/mL	inhibition	3%
CCOC(=O)c1[nH]cc(C)c1-c1ccc2c(-c3ccccc3)nc3ccccc3n12		H37Rv		12.5 µg/mL	inhibition	98%
COC(=O)Cc1ccnc2ccccc12		H37Rv		6.25 µg/mL	inhibition	0%
Cc1c[nH]c(C(=O)NN)c1-c1ccc2c(-c3ccccc3)nc3ccccc3n12		H37Rv			EC50	<12.5 µg/mL
CCOc1ccn(CC(=O)c2ccc([N+](=O)[O-])o2)c(=O)n1	resazurin	H37Rv		6.25 µg/mL	inhibition	8%
CCCCN(C(=O)COc1cc2c(O)c3c(O)c(C)c4c(c13)C(=O)[C@@](C)(O/C=C/[C@H](OC)[C@@H](C)[C@@H](OC(C)=O)[C@H](C)[C@H](O)[C@H](C)[C@@H](O)[C@@H](C)/C=C/C=C(/C)C(=O)N2)O4)N1CCOCC1					EC50	1.5 µg/mL
O=C(O)c1cnccn1		H37Rv			MIC	480 µg/mL
CC(C)C(=O)Cc1cnccn1	BACTEC	H37Rv			MIC	≥12.5 µg/mL
CCOC(=O)Cc1cc(C2CCCC2)nc2c(C3CCCC3)cccc12		H37Rv		6.25 µg/mL	inhibition	99%
CCCCN(CCCC)CCNc1ccc(C)c2sc3cc(Cl)ccc3c(=O)c12	BACTEC	H37Rv			MIC	1.6 µg/mL
Cn1cnc2c(NS(=O)(=O)c3cccc(Cl)c3)nc(Cl)cc21	visual reading	H37Rv			MIC99	12.5 µM
COc1cc(-c2cn3nc(C(F)(F)F)sc3n2)cc(OC)c1OC		H37Rv			MIC	40 µg/mL
O=c1cc(-c2ccc(O)c(O)c2)oc2cc(O)cc(O)c12	BACTEC	H37Rv			MIC	25 µg/mL
Cc1ccc(-c2nc3sc(S(N)(=O)=O)nn3c2SC#N)cc1		H37Rv			MIC	>6.25 µg/mL
Cn1cnc2c(NC(=O)Nc3ccccc3)nc(Cl)cc21	visual reading	H37Rv			MIC99	25 µM
Cc1cc2nc3[nH]c4c(Cl)cc(Cl)cc4c3nc2cc1C	BACTEC	H37Rv			MIC bound	>12.5 µg/mL
CCCN(CCC)N(CCC)C(=O)COc1cc2c(O)c3c(O)c(C)c4c(c13)C(=O)[C@@](C)(O/C=C/[C@H](OC)[C@@H](C)[C@@H](OC(C)=O)[C@H](C)[C@H](O)[C@H](C)[C@@H](O)[C@@H](C)/C=C/C=C(/C)C(=O)N2)O4					EC50	0.19 µg/mL
Cn1cnc2c(NC(=O)c3ccccc3F)nc(Cl)cc21	visual reading	H37Rv			MIC99	6.25 µM
CC(=O)C1=C(O)C(Nc2ccccc2)=CC(=O)C1=Nc1ccccc1	BACTEC	H37Rv			MIC	32 µg/mL
COc1ccc(-c2oc3ccc(F)cc3c(=O)c2O)cc1		H37Rv			MIC	>12.5 µg/mL
NC(=O)C(=CNC(=S)Nc1ccc(S(=O)(=O)Nc2ccccn2)cc1)C(N)=O	resazurin	H37Rv			MIC bound	>6.25 µg/mL
O=C1CC(c2ccc(Cl)cc2)Oc2ccccc21		H37Rv		12.5 µg/mL	inhibition	7%
O=c1cc(-c2ccccc2)oc2ccc(Cl)cc12		H37Rv		12.5 µg/mL	inhibition	30%
CO[C@H]1/C=C/O[C@@]2(C)Oc3c(C)c(O)c4c(O)c(cc(OCC(=O)NN5CCOCC5)c4c3C2=O)NC(=O)/C(C)=C\C=C\[C@H](C)[C@H](O)[C@@H](C)[C@@H](O)[C@@H](C)[C@H](OC(C)=O)[C@@H]1C					EC50	0.45 µg/mL
O=C(/C=C/c1cc2ccccc2[nH]1)c1ccncc1				12.5 µg/mL	inhibition	12%
CCCC12C=C(OC)C(=O)C(C1=O)C(c1ccc3c(c1)OCO3)C2C	BACTEC	H37Rv			MIC	≥12.5 µg/mL
O=C1CC(c2ccccc2)Oc2cc(F)ccc21		H37Rv		12.5 µg/mL	inhibition	15%
CCOC(=O)Cc1cc(C2CCCCC2)nc2c(C3CCCCC3)cccc12		H37Rv			MIC	6.25 µg/mL
O=C1Cn2c(c3ccccc3nc2=O)N1	BACTEC	H37Rv		12.5 µg/mL	inhibition	-4%
COc1ccc(/C=C/C(=O)c2cccc(F)c2O)cc1		H37Rv			EC50	>12.5 µg/mL

11 of the rows above, restated:

SMILES,read by,strain,setting,dose,read-out,value
Cc1c[nH]c(C(=O)O)c1-c1ccc2c(-c3ccccc3)nc3ccccc3n12,,H37Rv,,,EC50,>12.5 µg/mL
O=c1cc(-c2ccccc2)oc2cc(O)cc(O)c12,BACTEC,H37Rv,,,MIC,>100 µg/mL
O=C1CC(c2ccccc2)Oc2cc(F)ccc21,,H37Rv,,12.5 µg/mL,inhibition,15%
O=C(O)c1cnccn1,,H37Rv,,,MIC,480 µg/mL
Cn1cnc2c(NC(=O)c3ccc(C#N)cc3)nc(Cl)cc21,visual reading,H37Rv,,,MIC99,25 µM
NC(=O)c1ccc[n+](C2OC(COP(=O)([O-])OP(=O)([O-])OCC3OC(n4cnc5c(=O)[nH]c(N)nc54)C(O)C3O)C(O)C2O)c1.[Li+],BACTEC,H37Rv,,12.5 µg/mL,inhibition,7%
Cc1cc(C2CCCC2)nc2c(C3CCCC3)cccc12,,H37Rv,,,MIC,6.25 µg/mL
COc1ccc(-c2cn3nc(S(N)(=O)=O)sc3n2)cc1,,H37Rv,,,MIC,>6.25 µg/mL
CCOc1cc(O)c(C(=O)/C=C/c2ccccc2)c(OCC)c1,,H37Rv,,,EC50,>12.5 µg/mL
CCCC12C=C(OC)C(=O)C(C1=O)C(c1ccc3c(c1)OCO3)C2C,BACTEC,H37Rv,,,MIC,≥12.5 µg/mL
COc1ccc(/C=C/C(=O)c2cccc(F)c2O)cc1,,H37Rv,,,EC50,>12.5 µg/mL